B1: sdAb Abr6 (VHH)
VHH: EVQLQASGGGLVQAGGSLRLSCVVSGTTISISAVGWYRQAPGKERDMVARISSGGSNTDYVANVQGRFTVSRDNAKNTAYLQMNNLKPEDTAVYYCHVRPATWGQSRGYWGQGTQVTVSS
notes: source: E. coli Rosetta, soluble sdAb expression vector
B2: sdAb N5 (VHH)
VHH: EVQLEESGGGLVQPGGSLRVSCAASGFAFSGYAMGWFRQAPGKEREFVAGISRTDNYRPYADSVKGRFAISRDNAQNMVYLQMNSLKPEDTAVYYCAADRLGVPTPNSADYQYWGQGTQVIVSS
notes: as for B1
B3: sdAb Abr2 (VHH)
VHH: DVQLQASGGGLVQAGGSLVLSCTASGRSVSSLAMGWLRQVPGKERELVGSISLSGGRTYYADSMKGRFTISKDNAKNTVALQMNSLRPEDTAVYYCAARDAARDYAPLNFDTWGQGTQVTVSS
notes: as for B1
B4: sdAb Abr4 (VHH)
VHH: EVQLVESGGGLVQAGRSLILSCSASGGIFTNMGMGWYRQAPGKQREVVAQITNRGRTNYGESVKGRFTISRDNAQRTAYLQMNSLKPEDTAVYYCRTNYGGRDYWGQGTQVTVSS
notes: as for B1
B5: sdAb N12 (VHH)
VHH: EVQLQASGGGMVQGGGSLRLSCAASAHTFSDYAMGWFRQAPGKERSLVAAINRSGGRTWYTDSVRGRFTISRDNAKNTVYLQMDKLKPEDTAVYYCAAKSTHRDYAALNDYNYWGQGTQVTVSS
notes: as for B1
B6: sdAb Abr1 (VHH)
VHH: EVQLQASGGGLVQAGGSLRLSCAASGSDGSLEIMGWYRQAPGKQRELVARATSGGLKNYADSVKGRFTISGDLDKNTVYLQMNSLQPEDTGVYVCHLGVVASTYRDYWGQGTQVTVSS
notes: as for B1
B7: sdAb Abr5 (VHH)
VHH: EVQLQASGGGLVQAGGSLRLSCVVSGLSVGLNPVAWYRQAPGQQRDWVARMSMRGLTDYPDSLKGRAIISRDNAKNTVSLQMDSLKPEDTAVYFCKVGLSYWGQGTQVTVSS
notes: as for B1
B8: sdAb Abr11 (VHH)
VHH: DVQLQASGGGLVRAGGSLRLSCAVSGLTVSHAPSAWYRQAPGKQRDWVARLSMRGLTDYEDSVKGRFTISRDNAKNTVYLQMDSLKPEDTAVYFCKAGLNYWGQGIQVTVSS
notes: as for B1

What follows are binders tested against Abrus agglutinin (Abrus precatorius, UniProt Q9M6E9) (assay: SPR).

Binder	Kd [nM]	koff [s⁻¹]	kon [M⁻¹ s⁻¹]	binding result
B1	0.29	2.6e-05	91000	
B2	0.29	5.3e-05	180000	
B3	0.014	1.6e-05	1.1e+06	
B4	0.95	0.00049	510000	
B5	0.0026	4.2e-06	1.6e+06	
B6				no binding (tested: up to 30 nM)

The binders below were run against ricin (Ricinus communis, UniProt P02879) (assay: Luminex direct binding (microsphere fluorescence immunoassay)).

Binder	binding result
B2	binds
B3	no binding
B6	no binding
B7	no binding

Each binder was assayed against ricin A chain (Ricinus communis, UniProt P02879) in the same assay as above.

Binder	binding result
B3	no binding
B6	no binding
B7	no binding

These binders were tested against ricin B chain (Ricinus communis, UniProt P02879) in the same assay as above.

Binder	binding result
B1	binds
B3	no binding
B4	binds
B8	binds
B6	no binding
B7	no binding

Each binder was assayed against Ricinus communis Agglutinin (RCA120) (Ricinus communis, UniProt P06750) in the same assay as above.

Binder	binding result
B3	no binding
B6	no binding
B7	no binding

From article PMC3237003 (Toxins, 2011)
